Results of unrelated studies side by side (data: NIAID ChemDB).

Shared fields: tests in culture; agent: Rhinovirus; read-out: inhibition

Percent inhibition refers to the dose given; in toxicity tests it is the harm to the cells.

smiles,method,dose,strain or isolate,cells,result
CC(C)Oc1ccc(Cn2cnc3c(N(C)C)nc(C(F)(F)F)nc32)cc1,plaque count,8 µM,Serotype 15,M-HELA,40%
Nc1ccccc1S(=O)(=O)O,cytopathic effect,5 µg/mL,,Human embryonic lung cells,10%
CN(C)c1nc(C(F)(F)F)nc2c1ncn2Cc1ccc(F)cc1,plaque count,8 µM,Serotype 21,M-HELA,34%
FC(F)(F)c1cccc(C2CCN(c3ccc(Br)nn3)C2)c1,,0.006 µg/mL,17 serotypes,,18%
CN(C)c1ccc(Cn2cnc3c(N(C)C)nc(C(F)(F)F)nc32)cc1,plaque count,8 µM,Serotype 13,M-HELA,45%
COc1cc(-c2ccc(N=Nc3ccc4c(S(=O)(=O)O)cc(S(=O)(=O)O)c(N)c4c3O)c(OC)c2)ccc1N=Nc1ccc2c(S(=O)(=O)O)cc(S(=O)(=O)O)c(N)c2c1O,cytopathic effect,50 µg/mL,,Human embryonic lung cells,20%
CN(C)c1nc(C(F)(F)F)nc2c1ncn2Cc1cccc(F)c1,plaque count,8 µM,Serotype 3,M-HELA,35%
Nc1ccc(S(=O)(=O)[O-])c2c(S(=O)(=O)[O-])ccc(O)c12,cytopathic effect,50 µg/mL,,Human embryonic lung cells,80%
CN(C)c1nc(C(F)(F)F)nc2c1ncn2Cc1ccc(Cl)c(NC=O)c1,plaque count,8 µM,Serotype 15,M-HELA,29%
CCOc1cc(O)c(C(=O)/C=C/c2ccc(OC)cc2)c(OC)c1,,0.269 µg/mL,17 serotypes,,53%
O=S(=O)(O)c1cc(O)c2c(O)c(N=Nc3ccccc3)c(S(=O)(=O)O)cc2c1,cytopathic effect,50 µg/mL,,Human amnion AV3 cells,32%
CC1(C)COC(c2ccc(OCCN3CCN(c4ccc(Cl)nn4)CC3)cc2)=N1,,0.55 µg/mL,100 serotypes,,18%
O=C(Nc1ccc2c(O)c(N=Nc3ccc(N=Nc4ccc(S(=O)(=O)O)cc4)cc3)c(S(=O)(=O)O)cc2c1)c1ccccc1,cytopathic effect,10 µg/mL,,Human amnion AV3 cells,0%
Cc1ccc(N2CCC(c3cccc(C(F)(F)F)c3)C2)nn1,,0.018 µg/mL,17 serotypes,,18%
Nc1ccc2c(O)cc(S(=O)(=O)[O-])cc2c1S(=O)(=O)[O-],cytopathic effect,50 µg/mL,,Human amnion AV3 cells,10%
CN(C)c1nc(C(F)(F)F)nc2c1ncn2Cc1ccc(S(C)(=O)=O)cc1,plaque count,8 µM,Serotype 30,M-HELA,32%
N#Cc1cc([N+](=O)[O-])ccc1Oc1ccc(Cl)c(Cl)c1,,0.19 µg/mL,TYPE 1A,VERO,34%
COc1ccc(N2CCN(c3cccc(C)c3)CC2)nn1,,6 µg/mL,17 serotypes,,53%

The last 2 rows once more:

smiles,method,dose,strain or isolate,cells,result
N#Cc1cc([N+](=O)[O-])ccc1Oc1ccc(Cl)c(Cl)c1,,0.19 µg/mL,TYPE 1A,VERO,34%
COc1ccc(N2CCN(c3cccc(C)c3)CC2)nn1,,6 µg/mL,17 serotypes,,53%

Blank or dashed fields: not listed here. Conditions beyond the fields shown may differ between rows.